A mixed list of measured activities; the numbers were collected in NIAID ChemDB.

Common to all: growth or infection tests; agent: Mycobacterium tuberculosis

MIC bound comes from a single tested concentration.

structure,read-out,strain or isolate,read by,setting,tested at,mutations,value
Cc1nc2scc(-c3ccco3)c2c(=O)n1/N=C/c1ccco1,MIC,CNCTC MY331/88,-,-,-,-,56 µM
O=C(O)c1ccc2cccnc2c1O,MIC50,M 607,-,-,-,-,>25 µg/mL
O=C(N/N=C/c1c(Cl)cccc1Cl)c1cccnc1,MIC,-,-,-,-,-,1 µg/mL
CC[C@@H](C(=O)[C@@H](C)[C@@H](O)[C@H](C)CCc1ccc(C)c(O)c1C(=O)O)[C@H]1O[C@](CC)([C@H]2CC[C@](O)(CC)[C@H](C)O2)C[C@@H]1C,MIC bound,H37Rv,BACTEC,-,-,-,>12.5 µg/mL
CCN(CC)CN1C(=O)/C(=N\c2ncc(Cc3cc(OC)c(OC)c(OC)c3)c(N)n2)c2cc(Br)ccc21,inhibition,-,BACTEC,-,6.25 µg/mL,-,54%
Cc1nc2scc(-c3ccco3)c2c(=O)n1NC(=O)c1ccc(Cl)cc1Cl,MIC,CNCTC MY331/88,-,-,-,-,16 µM
CCn1cc(C(=O)O)c(=O)c2ccc(C)nc21,MIC90,H37Rv,-,-,-,gyrA mutation D94G,>50 µM
O=C(NCc1ccccn1)c1cc(F)ccc1O,MIC,H37Rv,-,14 d,-,-,500 µM
COc1ccccc1N1CCN(CCCCOc2nsc3nc(C)cc(C)c23)CC1,inhibition,H37Rv,BACTEC,-,12.5 µg/mL,-,10%
Cc1cc(O)c2c(c1)C(=O)C(c1c(C)cc3c(c1O)C(=O)C1OC1C3=O)=CC2=O,MIC,H37Rv,BACTEC,-,-,-,0.8 µg/mL
COc1cc(Cc2cnc(/N=C3\C(=O)N(CN4CCCC4)c4ccc(Br)cc43)nc2N)cc(OC)c1OC,inhibition,-,BACTEC,-,6.25 µg/mL,-,90%
Cc1c(CN2CCN(C)CC2)cc(-c2ccccc2)n1-c1ccc(F)cc1,MIC,-,-,-,-,-,1 µg/mL
CC[C@H]1OC(=O)[C@H](C)[C@@H](O[C@H]2C[C@@](C)(OC)[C@@H](O)[C@H](C)O2)[C@H](C)[C@@H](O[C@@H]2O[C@H](C)C[C@H](N(C)C)[C@H]2O)[C@](C)(OC)C[C@@H](C)C(=O)[C@H](C)[C@@H](O)[C@]1(C)O,Median MIC,H37Ra,-,-,-,-,6 µg/mL
C[C@H]1COc2c(N3CCN(C)CC3)c(F)cc3c(=O)c(C(=O)O)cn1c23,MIC,35 strains,-,-,-,-,16 µg/mL
CCCCCCCCNCc1ccccc1,MIC,H37Rv,-,-,-,-,250 µg/mL
Cc1c(CN2CCN(C)CC2)cc(-c2ccccc2)n1-c1cccc2ccccc12,MIC,103471,-,-,-,-,>16 µg/mL
NCC[C@H](O)C(=O)N[C@@H]1C[C@H](N)[C@@H](O[C@H]2O[C@H](CN)[C@@H](O)[C@H](O)[C@H]2O)[C@H](O)[C@H]1O[C@H]1O[C@H](CO)[C@@H](O)[C@H](N)[C@H]1O,MIC,7S,-,-,-,-,2.5 µg/mL
O=C(N/N=C/c1ccc(Cl)cc1Cl)c1cccnc1,MIC,-,-,-,-,-,1 µg/mL
Cc1onc(-c2ccccc2Cl)c1C(=O)N[C@@H]1C(=O)N2[C@@H]1SC(C)(C)[C@@H]2C(=O)O,Median MIC,H37Ra,-,-,-,-,128 µg/mL
NNC(=O)c1cccnc1,MIC,-,-,-,-,-,10 µg/mL
Cn1cc(C(=O)O)c(=O)c2cc([N+](=O)[O-])c3cccnc3c21,MIC90,BCG,-,-,-,gyrA mutation A90V,1.4 µM
COc1cccc(C(=O)NCc2cccnc2)c1O,MIC,H37Rv,-,14 d,-,-,250 µM
O=C(/C=C/c1ccco1)c1ccc(Br)cc1O,MIC,H37Rv,-,-,-,-,>12.5 µg/mL
CC1Cc2nc3ccccc3c(=O)n2O1,MIC bound,H37Rv,resazurin,-,-,-,>6.25 µg/mL
CCCCc1ccc(CO[C@@H]2COc3nc([N+](=O)[O-])cn3C2)cc1,MIC,H37Rv,-,-,-,-,0.015 µg/mL
CC(=O)NC1=C(Cl)C(=O)c2ccccc2C1=O,MIC,H37Rv,BACTEC,-,-,-,12.5 µg/mL
O=C(NCc1cccnc1)c1cc(Cl)cc(Cl)c1O,MIC,H37Rv,-,14 d,-,-,250 µM
CCCCNCc1cccc(C)c1,MIC,H37Rv,-,-,-,-,125 µg/mL
O=C(NCc1ccccc1)c1cc(Cl)ccc1O,MIC,H37Rv,-,14 d,-,-,62 µM
O=[N+]([O-])c1cn2c(n1)OC[C@@H](OCc1ccc(OCc3ccccc3)cc1)C2,MIC,H37Rv,-,-,-,-,0.015 µg/mL
O=Nc1nc2ncccn2c1-c1ccccc1,inhibition,H37Rv,resazurin,-,6.25 µg/mL,-,100%
Cc1c(CN2CCSCC2)cc(-c2ccccc2)n1-c1cccc2ccccc12,MIC,103471,-,-,-,-,>16 µg/mL
Cc1cc(C)c2c(=O)n(CC(=O)OCCN3CCN(c4ccccc4)CC3)sc2n1,EC50,H37Rv,BACTEC,-,-,-,>12.5 µg/mL
CCCCNCc1ccccc1F,MIC,H37Rv,-,-,-,-,250 µg/mL
CCCCc1c(O)c(N=NC(=N)N)c2ccccc2c1O,inhibition,H37Rv,BACTEC,-,12.5 µg/mL,-,65%
CC(C)c1c(O)ccc2c1CCC1C(C)(C)CCC[C@]21C,EC50,H37Rv,-,-,-,-,>12.5 µg/mL
CN(C)c1c(Cl)c(=O)oc2c1ccc1nc(-c3ccccc3)ncc12,inhibition,H37Rv,BACTEC,-,12.5 µg/mL,-,-19%
CCc1ccc(O)c2ncccc12,MIC50,H37Rv,-,-,-,-,0.5 µg/mL
Cc1cc(C)c2c(=O)n(CN3CCN(C/C=C/c4ccccc4)CC3)sc2n1,inhibition,H37Rv,BACTEC,-,12.5 µg/mL,-,0%
Cc1nc2scc(-c3ccco3)c2c(=O)n1NC(=O)c1ccc(F)cc1,MIC,CNCTC MY331/88,-,-,-,-,15 µM
O=C(NN=C1CCCC1)c1ccncc1,MIC,-,-,-,-,-,0.1 µg/mL
O=c1c(O)c(-c2cccc(Br)c2)oc2ccccc12,MIC,H37Rv,-,-,-,-,>12.5 µg/mL
Cc1cccc(C(=O)NCc2ccccn2)c1O,MIC,H37Rv,-,14 d,-,-,62.5 µM
Cc1nc2scc(-c3ccco3)c2c(=O)n1NC(=O)c1ccccc1,MIC,CNCTC MY331/88,-,-,-,-,99 µM
CC(C)(C)c1ccc(CO[C@@H]2COc3nc([N+](=O)[O-])cn3C2)cc1,MIC,W (MDR),-,-,-,-,0.03 µg/mL
O=Cc1ccc(O)c2ncccc12,MIC50,H37Rv,-,-,-,-,>10 µg/mL
O=c1cc(-c2ccccc2)oc2cc(Br)ccc12,inhibition,H37Rv,-,-,12.5 µg/mL,-,53%
S=C(S)NNc1ccccc1,MIC,PZA-R,-,-,-,-,>12.5 µg/mL
O=C(N/N=C/[C@H](O)[C@@H](O)[C@H](O)[C@H](O)CO)c1ccncc1,MIC,-,-,-,-,-,0.1–1 µg/mL
Cc1c(CN2CCSCC2)cc(-c2ccccc2)n1-c1ccccc1,MIC,-,-,-,-,-,1 µg/mL
CO[C@H]1/C=C/O[C@@]2(C)Oc3c(C)c(O)c4c(O)c(c(/C=N/N5CCN(C)CC5)c(O)c4c3C2=O)NC(=O)/C(C)=C\C=C\[C@H](C)[C@H](O)[C@@H](C)[C@@H](O)[C@@H](C)[C@H](OC(C)=O)[C@@H]1C,Mean MIC,H37Rv,-,-,-,-,0.11 µg/mL
CCOC(=O)c1ccc2cccnc2c1O,MIC50,H37Rv,-,-,-,-,1 µg/mL
Cc1ccc(C(=O)NCc2ccccn2)c(O)c1,MIC,H37Rv,-,21 d,-,-,125 µM
N#CC(N=Nc1cccc2ccccc12)C(N)=O,inhibition,H37Rv,BACTEC,-,12.5 µg/mL,-,-5%
COc1cc(Cc2cnc(/N=C3\C(=O)N(CN4CCN(c5cccc(Cl)c5)CC4)c4ccc(Br)cc43)nc2N)cc(OC)c1OC,inhibition,-,BACTEC,-,6.25 µg/mL,-,89%
NNC(=O)c1ccccc1SSc1ccccc1C(=O)NN,MIC bound,H37Rv,resazurin,-,-,-,>6.25 µg/mL
COc1cc(Cc2cnc(/N=C3\C(=O)N(CN4CCN(c5ccccn5)CC4)c4ccc(Br)cc43)nc2N)cc(OC)c1OC,inhibition,-,BACTEC,-,6.25 µg/mL,-,62%
CO[C@H]1/C=C/O[C@@]2(C)Oc3c(C)c(O)c4c(O)c(c5c(c4c3C2=O)NC2(CCN(CC(C)C)CC2)N=5)=NC(=O)/C(C)=C\C=C\[C@H](C)[C@H](O)[C@@H](C)[C@@H](O)[C@@H](C)[C@H](OC(C)=O)[C@@H]1C,Median MIC,H37Ra,-,-,-,-,≤0.006 µg/mL
COc1ccccc1N1CCN(CCCCn2sc3nc(C)cc(C)c3c2=O)CC1,inhibition,H37Rv,BACTEC,-,12.5 µg/mL,-,100%
Cn1cc(NC(=O)c2cc([N+](=O)[O-])cn2C)cc1C(=O)Nc1cc(S(=O)(=O)O)c2cc(S(=O)(=O)O)cc(S(=O)(=O)O)c2c1,inhibition,H37Rv,BACTEC,-,12.5 µg/mL,-,0%
CC(C)C1C=C2C(C(=O)C1=O)[C@@]1(C)CCCC(C)(C)[C@@H]1C[C@@H]2O,EC50,H37Rv,-,-,-,-,<12.5 µg/mL
O=C(C[n+]1ccccc1)N/N=C/c1ccc(Cl)cc1.[Cl-],MIC,-,-,-,-,-,>200 µg/mL
NNOC(=O)c1ccc2cccnc2c1O,MIC50,H37Rv,-,-,-,-,>10 µg/mL
CCCCNCc1ccccc1C,MIC,H37Rv,-,-,-,-,250 µg/mL
CN(C)c1ccc(/C=C/C(=O)c2ccncc2)cc1,MIC,H37Rv,-,-,-,-,>12.5 µg/mL
c1ccc2c(c1)nc1cc(NC3CCCCC3)c(=NC3CCCCC3)cc-1n2C1CCCCC1,MIC,H37Rv,BACTEC,-,-,-,3.13 µg/mL
CN[C@@H]1[C@@H](O)[C@@H](O[C@@H]2[C@@H](O)[C@H](O[C@H]3O[C@H](CN)CC[C@H]3N)[C@@H](N)C[C@H]2N)OC[C@]1(C)O,Median MIC,H37Rv,-,-,-,-,6 µg/mL
O=C1c2ccccc2-c2nccc3c2c1nc1ccccc13,inhibition,H37Rv,BACTEC,-,12.5 µg/mL,-,99%
CCCCNCc1cccc(Br)c1,MIC,H37Rv,-,-,-,-,125 µg/mL
CC(=O)NC[C@H]1CN(c2ccc(N3CCOCC3)c(F)c2)C(=O)O1,MIC,8S,-,-,-,-,0.5 µg/mL
Cc1c(CN2CCSCC2)cc(-c2ccccc2Cl)n1-c1ccccc1,MIC,103471,-,-,-,-,16 µg/mL
COc1cc(/C=N/NC(=O)CCCCCCCCC(=O)N/N=C/c2ccc(O)c(OC)c2)ccc1O,inhibition,H37Rv,BACTEC,-,12.5 µg/mL,-,9%
O=C(NCc1ccccn1)c1cc(Cl)ccc1O,MIC,H37Rv,-,21 d,-,-,250 µM
CC1CN(S(=O)(=O)c2ccccc2)C(C)CN1S(=O)(=O)c1ccccc1,MIC bound,H37Rv,BACTEC,-,-,-,>12.5 µg/mL
O=C(NCc1cccnc1)c1ccc(Cl)cc1O,MIC,H37Rv,-,14 d,-,-,125 µM
CO[C@H]1/C=C/O[C@@]2(C)Oc3c(C)c(O)c4c(O)c(c5c(c4c3C2=O)NC2(CCN(CC(C)C)CC2)N=5)=NC(=O)/C(C)=C\C=C\[C@H](C)[C@H](O)[C@@H](C)[C@@H](O)[C@@H](C)[C@H](OC(C)=O)[C@@H]1C,MIC,9 (rifampicin-resistant),-,-,-,-,>2 µg/mL
O=c1cc(-c2ccccc2)oc2ccc(F)cc12,MIC,H37Rv,-,-,-,-,>12.5 µg/mL
O=C(N/N=C/c1ccc(Cl)cc1Cl)c1ccccc1SSc1ccccc1C(=O)N/N=C/c1ccc(Cl)cc1Cl,MIC,H37Rv,BACTEC,-,-,-,≥12.5 µg/mL
COc1cc(Cc2cnc(/N=C3\C(=O)N(CN4CCN(c5cccc(C(F)(F)F)c5)CC4)c4ccc(Br)cc43)nc2N)cc(OC)c1OC,inhibition,-,BACTEC,-,6.25 µg/mL,-,31%
CCC1CN2CCC3(C(=O)Nc4ccccc43)C2CC1/C(=C/OC)C(=O)OC.Cl,MIC,H37Rv,BACTEC,-,-,-,≥12.8 µg/mL
COc1ccc(C(=O)NCc2ccccc2)c(O)c1,MIC,H37Rv,-,14 d,-,-,125 µM
Oc1ccc(NC(=S)S)cc1,MIC bound,H37Rv,BACTEC,-,-,-,>12.5 µg/mL
Cc1cc(C)c2c(=O)n(CC(O)CN3CCN(c4ncccn4)CC3)sc2n1,inhibition,H37Rv,BACTEC,-,12.5 µg/mL,-,4%
CSC(=S)NN=C1CCCCC1,MIC,CS-R,-,-,-,-,12.8 µg/mL
CCc1cc(C(N)=S)ccn1,Mean MIC,H37Ra,-,-,-,-,1.02 µg/mL
CCN(CC)CCNc1ccc([N+](=O)[O-])c2sc3ccccc3c(=O)c12,MIC,H37Rv,BACTEC,-,-,-,3.13 µg/mL
NNC(=O)c1ccncc1,MIC,Isolate UT3181 (deletion),-,-,-,-,>256 µg/mL

Two numbers with a dash give a range or band. Blank or dashed fields: not listed here. A number after MIC or MFC names an inhibition level or a share of isolates. Conditions beyond the fields shown may differ between rows. ECn is the concentration giving n% inhibition of infection, replication or growth. Inhibition is in % at the dose shown (toxicity tests: loss of growth or viability).